Data on one compound can be found in patent US20080044348A1 (priority 2006, published 2008).

The subject of the assay is HIF1α signaling. Briefly: HIF1α dual fluorescence reporter assay in C6#4 tumor cell spheroids. Type of assay: cell-based. (In general: Reporter assays use an easily measured gene product as a stand-in for the process of interest.)

As to `N[C@@H](Cc1ccc([N+]([O-])(CCCl)CCCl)cc1)C(=O)O`, under “C6#4 reporter cells, 200 μm CoCl2”, the “effect on CoCl2-induced HIF1α signaling” value is reported as “suppressed CoCl2-induced HIF1α signaling”. In addition, the “level of HIF1α expression and activity” value (C6#4 spheroids) was “inhibited the level of HIF1α expression and activity”. Moreover, the “hypoxic response of spheroids (GFP expression)” value (spheroids) is listed as “inhibited”.
